Assay results as given in PMC9024893, “1,2,4-Trioxolane and 1,2,4,5-Tetraoxane Endoperoxides against Old-World Leishmania Parasites: In Vitro Activity and Mode of Action” (Pharmaceuticals, 2022).

Experiments:
[1] = test system: L. infantum IMT151 promastigotes; test: Promastigotes susceptibility assay (MTT), L. infantum; assay type: cell-based, Leishmania infantum; settings: for SI (J774A.1), L. infantum promastigotes: CC50 in J774A.1 / IC50 of promastigotes; for SI (THP-1), L. infantum promastigotes: CC50 in THP-1 / IC50 of promastigotes; for SI, human cell line (THP-1), promastigotes: text bound, both Leishmania species
Protocol: (§1) Promastigote forms of strains of L. infantum (MHOM/PT/1988/IMT151) and L. donovani (MHOM/BD/2006/BD14) were cultured at 24 °C ± 1 °C in M199 medium (Sigma) supplemented with 20% foetal bovine serum (FBS, Sigma) and 1% penicillin-streptomycin (Sigma). L. infantum strain belongs to IHMT, Portugal cryobank collection and the L. donovani strain was kindly provided by Dr. Katrin Kuhls, Technical University of Applied Sciences Wildau, Germany. Promastigotes used for the experiments had 7 to 12 in vitro passages in culture after isolation from mice, in order to keep virulence, and were used when the stationary phase of growth was reached (day 5 to 6), corresponding to the highest promastigotes density.
(§2) For the determination of the antileishmanial activity and IC50, promastigotes of L. infantum and L. donovani were plated in 96-well flat bottom culture plates at a concentration of 5 × 10^6 parasites/mL and incubated with six serial concentrations of each compound (Table 3), in four replicates, including the control drugs, amphotericin B, miltefosine and pentamidine. One untreated control (parasites with M199 medium plus 0.5% DMSO as vehicle solution) and one blank (M199 medium alone) were also plated out in quadruplicate. After 48 h incubation at 24 °C ± 1 °C, the inhibitory activity of the compounds was evaluated using the MTT, as previously described, with an additional 4 h incubation at 36 °C. Results were expressed in terms of percentage of parasite viability relative to nontreated control and IC50 was calculated fitting the data as a non-linear regression with variable slope using a dose-response inhibitory model, in the GraphPad Prism V 8.0 program. Each compound was tested in three independent assays. […]

[2] = test system: L. donovani BD14 promastigotes; test: Promastigotes susceptibility assay (MTT), L. donovani; assay type: cell-based, Leishmania donovani; settings: for SI (J774A.1), L. donovani promastigotes: CC50 in J774A.1 / IC50 of promastigotes; for SI (THP-1), L. donovani promastigotes: CC50 in THP-1 / IC50 of promastigotes
Protocol: as §1, §2

[3] = test system: L. infantum IMT151 intracellular amastigotes; test: Intracellular amastigotes assay in J774A.1 macrophages, L. infantum; assay type: cell-based, Leishmania infantum; settings: for SI (J774A.1), L. infantum amastigotes: CC50 in J774A.1 / IC50 of amastigotes; for SI (THP1), L. infantum amastigotes: CC50 in THP-1 / IC50 of amastigotes
Protocol: (§3) The intracellular assay using the macrophage J774A.1 cell line was performed with the compounds that presented best SI on the promastigote’s susceptibility assay. J774A.1 cells were adjusted to 2.5 × 10^5 cells/mL in supplemented DMEM medium. 200 μL/well of the cell suspension was placed in 16 well Lab Tek culture glass slides (Nunc), and incubated at 37 °C ± 1 °C, 5% CO2, for 3 h, to enable the cells to adhere to the slides. After a washing step with DMEM to discard non-attached cells, the cells were infected with 2.5 × 10^6 cells/mL promastigotes in a 10:1 parasite-host cell proportion for 24 h. Compounds and control drugs were added in two replicates of six serial concentrations (Table 3). As negative control, macrophages were cultivated in medium and DMSO, as vehicle solution (0.5% v/v). Slides were incubated for 48 h at the same temperature. After a washing step with 1× PBS (Sigma), slides were fixed and stained, and the infection index was calculated according to [34] by counting the number of intracellular amastigotes per 100 macrophages, in treated and untreated cells. Two independent experiments were performed to determine the amastigotes IC50 of each compound, which was calculated by fitting the data as a non-linear regression with variable slope using a dose-response inhibitory model, in the GraphPad Prism V 8.0 program. SI was determined as described above.

[4] = test system: L. donovani BD14 intracellular amastigotes; test: Intracellular amastigotes assay in J774A.1 macrophages, L. donovani; assay type: cell-based, Leishmania donovani; settings: for SI (J774A.1), L. donovani amastigotes: CC50 in J774A.1 / IC50 of amastigotes; for SI (THP-1), L. donovani amastigotes: CC50 in THP-1 / IC50 of amastigotes
Protocol: as §3

SMILES	SI (J774A.1), L. infantum promastigotes [1]	SI (THP-1), L. infantum promastigotes [1]	SI (J774A.1), L. donovani promastigotes [2]	SI (THP-1), L. donovani promastigotes [2]	SI, human cell line (THP-1), promastigotes [1]	SI (J774A.1), L. infantum amastigotes [3]	SI (THP1), L. infantum amastigotes [3]	SI (J774A.1), L. donovani amastigotes [4]	SI (THP-1), L. donovani amastigotes [4]
Cn1nnc(NCC2CCC3(CC2)OOC2(O3)C3CC4CC(C3)CC2C4)n1 (centres unmarked) [LC131]	0.1	0.2	0.3	0.6	–	–	–	–	–
c1ccc(-n2nnnc2OCC2CCC3(CC2)OOC2(O3)C3CC4CC(C3)CC2C4)cc1 (centres unmarked) [LC132]	3.5	7.7	3.2	7.0	higher than 7	3.5	7.6	4.9	–
OCC1CCC2(CC1)OOC1(OO2)C2CC3CC(C2)CC1C3 (centres unmarked) [LC146]	3.0	6.6	1.8	4.1	–	–	–	–	–
CCOC(=O)C1CCC2(CC1)OOC1(OO2)C2CC3CC(C2)CC1C3 (centres unmarked) [LC138]	4.2	22.6	2.2	11.9	higher than 7	22.1	118.6	1.2	10.6
C1C2CC3CC1CC(C2)C31OOC2(CCC(Nc3nnn[nH]3)CC2)O1 (centres unmarked) [LC136, N-1H-1,2,3,4-Tetraazol-5-yl-dispiro[cyclohexane-1,3'-[1,2,4]trioxolane-5',2''-tricyclo[3.3.1.13,7]decan]-4-ylamine]	0.3	0.6	0.5	1.1	–	–	–	–	–
C1C2CC3CC1CC(C2)C31OOC2(CCC(Nc3nnn[nH]3)CC2)OO1 (centres unmarked) [LC163]	2.5	4.0	0.9	1.4	–	–	–	–	–
CCCCCCCCCCCCCCCCOP(=O)([O-])OCC[N+](C)(C)C [Miltefosine, reference compound]	0.6	0.7	3.9	4.1	–	5.6	6.0	7.1	6.7
C[C@@H]1[C@H](O)[C@@H](C)/C=C/C=C/C=C/C=C/C=C/C=C/C=C/[C@H](O[C@@H]2O[C@H](C)[C@@H](O)[C@H](N)[C@@H]2O)C[C@@H]2O[C@](O)(C[C@@H](O)C[C@@H](O)[C@H](O)CC[C@@H](O)C[C@@H](O)CC(=O)O[C@H]1C)C[C@H](O)[C@H]2C(=O)O [AmB, amphotericin B, reference compound]	467.7	151.0	282.5	91.2	–	898.4	–	898.4	40.4
O=C1CCC2(CC1)OOC1(OO2)C2CC3CC(C2)CC1C3 [LC140]	2.6	5.4	1.5	3.0	–	–	–	–	–
O=S1(=O)N=C(OCC2CCC3(CC2)OOC2(O3)C3CC4CC(C3)CC2C4)c2ccccc21 (centres unmarked) [LC129]	1.2	1.3	1.3	1.5	–	–	–	–	–
OCC1CCC2(CC1)OOC1(O2)C2CC3CC(C2)CC1C3 (centres unmarked) [LC93]	0.0	0.4	0.1	1.2	–	–	–	–	–
C1CCC2(CC1)OOC1(OO2)C2CC3CC(C2)CC1C3 [LC137]	–	–	–	–	higher than 7	–	–	–	7.5
